Measurements taken from PMC5435703 (Scientific Reports, 2017).

Assay: UV-Vis metal(II) binding, metals taken together
Type: physicochemical
Conditions: UV-Vis experiments

| Structure (SMILES) | direct binding of metal(II) cations |
| --- | --- |
| COCCOCCOCCOCCOC(=O)Oc1c(Br)cc(Br)c2nc3ccccc3nc12 [HP 24] | do not directly bind |
| COCCOCCOCCOCCOC(=O)Oc1c(Br)cc(Br)c2nc3c(C)cccc3nc12 [HP 25] | do not directly bind; also recorded: does not bind |

“Also recorded” adds a separate entry of the source.
